# Source: PubChem BioAssay AID552 (SRMLSC, 2006)
# This is a selection; strong and weak results do not stand in their true shares. Active and inactive are the calls of the source. Cut-off read from the data, not from the text of the source: active = inhibition above about 40%; inactive = the rest.
# Assay: growth inhibitors of wild type E. coli, primary screen, strain BW25113 wild type, absorbance readout (AID 552);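 note: bacteria exposed to compound for 20 hours at 37 °C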
# Conditions: OD600, at 10 µM, stronger effect = higher value
# How it was run: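 assay system = bacterial strain in a whole-cell growth screen | quantity = inoculum from a 1:1000 dilution of a 1.5 h subculture | buffer or medium = LB broth with 50 µg/mL kanamycin | compound dosing = one dose, 10 µM final | schedule = compound exposure of 20 h at 37 °C | technique = absorbance at 615 nm as a measure of bacterial growth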
row,Compound,inhibition
1,Cc1nc2ccc3ccccc3c2s1.O=[N+]([O-])c1cc([N+](=O)[O-])c(O)c([N+](=O)[O-])c1,inactive: -14.7%
2,Cc1ccc(C)c(NP(C)(=O)Oc2ccccc2)c1 (stereo unspecified),inactive: 2.35%
3,CP(=S)(Nn1cnnc1)Oc1ccccc1 (stereo unspecified),inactive: 0.88%
4,CP(=O)(Nc1ccccn1)Oc1ccccc1 (stereo unspecified),inactive: 5.39%
5,CN(C)CCOC(=O)C(O)(c1ccccc1)C1CCCCC1 (stereo unspecified),inactive: -3.25%
6,CP(=O)(Nc1ccc2c(c1)OCCO2)Oc1ccccc1 (stereo unspecified),inactive: 9.47%
